# Single amino acid changes in Zika NS2B-NS3 and viral growth

From the data files of Ni et al. 2025, doi:10.1038/s41467-025-63602-z.

The scanned region of Zika virus MR766 is shown below (positions 1-308): NS2B is 2-131, NS3 begins at position 132.
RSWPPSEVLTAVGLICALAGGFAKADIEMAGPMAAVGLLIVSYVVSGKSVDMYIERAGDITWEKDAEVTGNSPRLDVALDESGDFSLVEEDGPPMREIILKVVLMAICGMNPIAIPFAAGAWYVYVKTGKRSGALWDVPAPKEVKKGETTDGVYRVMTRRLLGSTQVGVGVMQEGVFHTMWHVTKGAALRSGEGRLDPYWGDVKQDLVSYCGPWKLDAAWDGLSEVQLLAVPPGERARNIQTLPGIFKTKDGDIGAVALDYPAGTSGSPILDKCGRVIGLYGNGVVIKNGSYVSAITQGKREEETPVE

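Pools of virus carrying all single amino acid changes were selected for growth in Huh-7.5 cells. Deep sequencing gave the change in frequency of each mutant relative to wild type, averaged over three replicate libraries (two for positions 207-308). The study looked for pockets that tolerate few changes, as a guide for inhibitor design.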

Values are log2 effects on growth: 0 is wild type, lower means poorer growth.
Each entry names the wild-type residue, its position and the residue put in its place.
This list holds changes to alanine only.
Positions 1-103, 104-206 and 207-308 were made and measured as separate libraries.

With R155A the assay gave -6.18. V156A gave -6.53. With M157A the assay gave -6.04. T158A read 1.68. R159A read -5.15. R160A read -1.97. With L161A the assay gave -5.61. L162A read -5.88. G163A read -3.48.

With S164A the assay gave -0.61. With T165A the assay gave -1.56. Q166A gave -6.25. With V167A the assay gave 0.35. With G168A the assay gave -5.75. V169A read -0.73. With G170A the assay gave -6.82. For V171A the result was -5.39. M172A gave -6.71.

With Q173A the assay gave -0.21. For E174A the result was -4.61. For G175A the result was -5.95. For V176A the result was -5.29. With F177A the assay gave -6.14. H178A gave -5.92. T179A read -6.54. M180A read -5.23. W181A read -5.61.

With H182A the assay gave -5.19. V183A gave -6.18. T184A gave -6.74. With K185A the assay gave -4.16. For G186A the result was -2.44. L189A read -5.25. R190A read -4.91. With S191A the assay gave -3.40. G192A read -2.84.

With E193A the assay gave -1.16. G194A gave -4.75. R195A read -6.18. With L196A the assay gave -6.30. D197A read -2.13. For P198A the result was -7.35.

Excerpt, the final 4 entries:

substitution,effect (log2)
R195A,-6.18
L196A,-6.30
D197A,-2.13
P198A,-7.35

The authors count -1 or higher as tolerated. Position 1 is the last residue of NS2A.
Six mutants with high scores were retested singly and none clearly outgrew wild type, so positive values are not proof of better growth.